The text below walks through data of PubChem BioAssay AID504848 (National Center for Advancing Translational Sciences (NCATS), 2011).

The structures appear in SMILES notation. The list shows a part of the results, in another mix than the full data. Inconclusive results are not listed. Calls of active or inactive are those of the source. Calls follow the shape of the dose curve; as a rule, active = well fitted inhibition curve with a large enough effect; inconclusive = small, poorly fitted or top-dose-only effect, or effect the other way; inactive = no such curve, though single readings can be large or run the other way.
Potency is read from the fitted curve at half-maximal effect.

A short description of the assay: Confirmation screen for delayed death inhibitors of the malarial parasite plastid, 96 hour incubation. Also: nearly all actives have a fitted effect of over 60% in size. The following applies: P. falciparum luciferase growth in erythrocytes.
For `CP(=O)(Nc1ccc(SC(F)(F)F)cc1)Oc1ccccc1` (stereo unspecified), the Potency was active: 4.47 µM.
